Data as given in paper PMC10704857 (Journal of medicinal chemistry, 2021).

Target: RTA depurination of yeast ribosomes (Ricinus communis, UniProt P02879)
Type: biochemical

SMILES: Cc1cc(C)c(-c2ccc(C(=O)O)s2)c(C)c1 [RU-NT-75, 5-Mesitylthiophene-2-carboxylic Acid]
- IC50: 48 ± 11 µM
